Measured values: publication PMC4778845, “Three Recombinant Engineered Antibodies against Recombinant Tags with High Affinity and Specificity” (PLoS ONE, 2016)

Key:
[1] = biological target: PCDH15-THAP (mouse protocadherin-15 with tandem HAP inserted between EC domains 10 and 11) (mouse); experiment: immunostaining of cells or tissue
[2] = biological target: PCDH15-HAP (mouse protocadherin-15 with a single HAP inserted between EC domains 10 and 11) (mouse); experiment: immunostaining of cells or tissue
[3] = biological target: PCDH15-THAP (mouse protocadherin-15 with tandem HAP inserted between EC domains 10 and 11) (mouse); experiment: far-Western, overlay or dot blot
[4] = biological target: T1, anti-THAP (α-bungarotoxin fused to human Fc, homodimeric) (Bungarus multicinctus, UniProt P60615 22-95, biotin (EZ-Link Hydrazide-PEG4-Biotin), only in the single-molecule pull-down); experiment: SPR
T1 construct: source: HEK293f, transiently transfected, secreted, purified (rProtein A HiTrap)

[5] = biological target: T2, anti-THAP (alpha-bungarotoxin fused to human Fc, homodimer with two BTX arms) (Bungarus multicinctus, UniProt P60615 22-95); experiment: SPR
T2 construct: source: HEK293f, transiently transfected, secreted, purified (rProtein A HiTrap)

Which results are given for “anti-THAP (α-bungarotoxin fused to human Fc, homodimeric) (from UniProt P60615 22-95) (Fc fusion)”?
Kd [1]: 0.07 nM; Kd [2]: 0.4 nM; immunoblot signal, fold of that of PCDH15-HAP [3]: 30 fold

With “biotinylated α-bungarotoxin (from UniProt P60615 22-95) (natural protein)” as the molecule, how does the Kd [1] read?
Its Kd is 10 nM.

How did the Kd [4] turn out when WRYYESSLEPYPD [high affinity peptide (HAP), listing 1 of 2 here] was run?
Its Kd is ~2 nM.

Which Kd [5] does the source give for WRYYESSLEPYPD [high affinity peptide (HAP), listing 2 of 2 here] here?
The Kd was 1.9 nM.

What about the koff [5] of the same molecule?
Its koff is 0.00095 s⁻¹.

What about the kon [5] of the same molecule?
Its kon is 490000 M⁻¹ s⁻¹.
